Test system: CD8+ cells
Assay: Two color FACS (CD62L, CFSE) of peptide-stimulated CD8+ cells
Format: cell-based, human
Conditions: Donor 1 CD8+ cells, 20 additional days in IL-2

“M1: influenza matrix CTL epitope M1: 58-66, positive control” was tested, and the “CD62L+ cells in the resulting population” value was 21%.

Reference: patent US10239916B2, “Controlled modulation of amino acid side chain length of peptide antigens” (Board of Regents, The University of Texas System, priority 2002, dated 2019)
